From patent publication US20080020973A1 (priority 2004, published 2008)

Tests used:
Type in all cases: biochemical
[1] = biological target: T1, vaccinia DNA topoisomerase IB (vTopo) (Vaccinia virus, UniProt P68698); experiment: Molecular beacon RNase assay (18U-FAM/18-DAB), high-throughput inhibitor screen; conditions: @0.1 μM
[2] = biological target: T1, vaccinia DNA topoisomerase IB (vTopo); experiment: Plasmid supercoil relaxation (SC release) assay, vTopo; conditions: vaccinia enzyme, @0.006 μM
[3] = biological target: human topoisomerase type IB (hTopo) (Homo sapiens, UniProt P11387); experiment: Plasmid supercoil relaxation (SC release) assay, hTopo; conditions: [I]human/[I]vaccinia giving similar inhibition in the supercoil release assay

## O=[As](O)(O)c1ccc(-c2cccc([As](=O)(O)O)c2)cc1
[1]
  % Inhibition (RNAse HTS): 100% @0.1 μM
[2]
  % Inhibition (plasmid SC release assay): 50% @0.006 μM
[3]
  Selectivity: 3330
